Consider 2 substances from paper PMC12589655, “Conformational dynamics, RNA binding, and phase separation regulate the multifunctionality of rabies virus P protein” (2025).

The subject of data set [1] is CVS P3-D289N, recombinant, rabies virus, strain CVS-11, P22363 53-297. In words: cross-linking.
Data set [2] relates to CVS P3-KRm, recombinant (K214A/R260A), rabies virus, strain CVS-11, P22363 53-297. Nature of the data set: cross-linking.

For the substance CVS P3-D289N, recombinant, the result in data set [1] was “binds”. As for “CVS P3-KRm, recombinant (K214A/R260A) K214A | R260A”, in data set [2], the result was “binds”.
